Source: US11034648B2, “Cystobactamide derivatives” (priority 2017, dated 2021)
Values after ≈ are worked out from the molar mass of the structure shown.

Legend:
A. baumannii DSM-30008 = assay: MIC, microbroth dilution susceptibility assay; assay type: cell-based; settings: large panel, Table 2a
C. freundii DSM-30039 = assay: MIC, microbroth dilution susceptibility assay; assay type: cell-based; settings: large panel, Table 2a
E. aerogenes DSM-30053 = assay: MIC, microbroth dilution susceptibility assay; assay type: cell-based; settings: large panel, Table 2a
E. cloacae DSM-30054 = assay: MIC, microbroth dilution susceptibility assay; assay type: cell-based; settings: large panel, Table 2a
E. coli WT DSM-1116 = assay: MIC, microbroth dilution susceptibility assay; assay type: cell-based; settings: small panel, Tables 1a/1b; no visual growth after approx. 16 h
E. coli WT = assay: MIC, microbroth dilution susceptibility assay; assay type: cell-based; settings: large panel, Table 2a
E. faecalis ATCC-29212 = assay: MIC, microbroth dilution susceptibility assay; assay type: cell-based; settings: large panel, Table 2a; TSB
K. pneumoniae DSM-30104 = assay: MIC, microbroth dilution susceptibility assay; assay type: cell-based; settings: large panel, Table 2a
P. aeruginosa DSM-24600 = assay: MIC, microbroth dilution susceptibility assay; assay type: cell-based; settings: large panel, Table 2a
P. aeruginosa DSM-46316 = assay: MIC, microbroth dilution susceptibility assay; assay type: cell-based; settings: large panel, Table 2a
P. aeruginosa WT PA14 = assay: MIC, microbroth dilution susceptibility assay; assay type: cell-based; settings: small panel, Tables 1a/1b
P. mirabilis DSM-2140 = assay: MIC, microbroth dilution susceptibility assay; assay type: cell-based; settings: large panel, Table 2a
P. vulgaris DSM-2140 = assay: MIC, microbroth dilution susceptibility assay; assay type: cell-based; settings: large panel, Table 2a
S. aureus ATCC-29213 = assay: MIC, microbroth dilution susceptibility assay; assay type: cell-based; settings: large panel, Table 2a
S. aureus Newman = assay: MIC, microbroth dilution susceptibility assay; assay type: cell-based; settings: small panel, Tables 1a/1b
S. epidermidis DSM-28765 = assay: MIC, microbroth dilution susceptibility assay; assay type: cell-based; settings: large panel, Table 2a
S. marcescens DSM-30121 = assay: MIC, microbroth dilution susceptibility assay; assay type: cell-based; settings: large panel, Table 2a
S. pneumoniae DSM-20566 = assay: MIC, microbroth dilution susceptibility assay; assay type: cell-based; settings: large panel, Table 2a; TSB
E. coli ΔtolC = settings: small panel, Tables 1a/1b; no visual growth after approx. 16 h
P. aeruginosa ΔmexAB = settings: efflux-deficient strain; small panel, Tables 1a/1b
[1] = system: E. coli WT-3 [gyrA(S83L,D87G)]; settings: fluoroquinolone-resistant mutant; Table 2a

## COC(C(N)=O)C(NC(=O)c1ccc(NC(=O)c2ccc([N+](=O)[O-])cc2)cc1)C(=O)Nc1ccc(C(=O)Nc2ccc(C(=O)Nc3ccc(C(=O)O)cc3OC(C)C)c(O)c2OC(C)C)cc1 (stereo not drawn)
A. baumannii DSM-30008
  MIC A. baumannii DSM-30008: 8 µg/mL (≈ 8.7 µM)
C. freundii DSM-30039
  MIC C. freundii DSM-30039: 1 µg/mL (≈ 1.09 µM)
E. aerogenes DSM-30053
  MIC E. aerogenes DSM-30053: >64 µg/mL
E. cloacae DSM-30054
  MIC E. cloacae DSM-30054: >64 µg/mL
E. coli WT DSM-1116
  MIC E. coli WT DSM-1116: 0.5 µg/mL (≈ 0.544 µM)
E. coli WT
  MIC E. coli WT: 0.5 µg/mL (≈ 0.544 µM)
E. faecalis ATCC-29212
  MIC E. faecalis ATCC-29212: 0.1 µg/mL (≈ 0.109 µM)
K. pneumoniae DSM-30104
  MIC K. pneumoniae DSM-30104: >64 µg/mL
P. aeruginosa DSM-24600
  MIC P. aeruginosa DSM-24600: 64 µg/mL (≈ 69.6 µM)
P. aeruginosa DSM-46316
  MIC P. aeruginosa DSM-46316: 64 µg/mL (≈ 69.6 µM)
P. aeruginosa WT PA14
  MIC P. aeruginosa WT PA14: >64 µg/mL
P. mirabilis DSM-2140
  MIC P. mirabilis DSM-2140: >64 µg/mL
P. vulgaris DSM-2140
  MIC P. vulgaris DSM-2140: 4 µg/mL (≈ 4.35 µM)
S. aureus ATCC-29213
  MIC S. aureus ATCC-29213: 0.1 µg/mL (≈ 0.109 µM)
S. aureus Newman
  MIC S. aureus Newman: 0.25 µg/mL (≈ 0.272 µM)
S. epidermidis DSM-28765
  MIC S. epidermidis DSM-28765: 0.25 µg/mL (≈ 0.272 µM)
S. marcescens DSM-30121
  MIC S. marcescens DSM-30121: >64 µg/mL
S. pneumoniae DSM-20566
  MIC S. pneumoniae DSM-20566: 0.13 µg/mL (≈ 0.141 µM)
E. coli ΔtolC
  MIC E. coli ΔtolC: 0.25 µg/mL (≈ 0.272 µM)
P. aeruginosa ΔmexAB
  MIC P. aeruginosa ΔmexAB: 4 µg/mL (≈ 4.35 µM)
[1]
  MIC E. coli WT-3 [gyrA(S83L,D87G)]: 64 µg/mL (≈ 69.6 µM)
